Compound potency records, mixed from different reports. Data source: NIAID ChemDB in PubChem.

All rows: growth or infection tests; species: Mycobacterium tuberculosis

Blank or dashed fields: not listed here. MIC bound: limit read from a one-dose screen. Percent inhibition refers to the dose given; in toxicity tests it is the harm to the cells. Lines come from different laboratories, so protocols vary. A number after MIC or MFC names an inhibition level or a share of isolates. ECn is the concentration giving n% inhibition of infection, replication or growth.

SMILES | endpoint | tested at | strain or isolate | method | result
Br.NC1=NC(=O)CS1 | MIC | - | H37Rv | - | >100 µg/mL
NC(=O)c1ccc[n+]([O-])c1 | MIC bound | - | H37Rv | BACTEC | >12.5 µg/mL
COc1cc(NCC(O)COCCO)c2ncccc2c1.Cl | MIC | - | H37Rv | - | >100 µg/mL
COC(=O)Nc1cc2c(c(N)n1)N=C(c1ccccc1)C(C)N2 | EC50 | - | H37Rv | - | >12.5 µg/mL
CC(C)(C)CC(C)(C)NCCNCc1ccc(C(F)(F)F)cc1 | MIC | - | - | - | 37.5 µM
CC=CCOc1cc(NC(=S)OC(C)C)ccc1Cl | MIC | - | H37Rv | BACTEC | 12.5 µg/mL
OC(Cc1ccccc1)c1ccccc1 | MIC | - | H37Rv | - | >100 µg/mL
COc1ccc2[nH]c3c(C)c4ccncc4c(C)c3c2c1 | MIC | - | INH-r | - | 0.2 µg/mL
CC(NCCNCCc1ccccc1Cl)c1cccc2ccccc12 | MIC | - | - | - | 25 µM
CCCCCCCCCCCNCCN[C@H](CO)CC(C)C | MIC | - | - | - | 50 µM
COc1c(Cl)c(C)c(Cl)c(C)c1C(=O)O | MIC | - | H37Rv | - | >100 µg/mL
Cc1ccccc1S(=O)(=O)N1C(=O)c2ccccc2S1(=O)=O | MIC bound | - | H37Rv | BACTEC | >12.5 µg/mL
C[C@@H]1CN(c2c(F)c(N)c3c(=O)c(C(=O)O)cn(C4CC4)c3c2F)C[C@H](C)N1 | MIC | - | H37Rv | - | 0.06 µg/mL
COc1cc(O)c2c(c1)C(=O)C1=C(C2=O)C(C)OC(C)C1O | MIC bound | - | H37Rv | BACTEC | ≤12.5 µg/mL
O=C(/C=C/c1ccccc1)c1cc(I)ccc1O | EC50 | - | H37Rv | - | ~12.5 µg/mL
O=[N+]([O-])c1cc([As](=O)([O-])O)ccc1OCCO.[Na+] | MIC | - | H37Rv | - | >100 µg/mL
CCCC(=O)OCc1cc(=O)n(C)c2c3c4c(cc12)c(C)cc(=O)n4CO3 | MIC | - | PAS-R | - | 0.2 µg/mL
CC(=O)Oc1ccc([C@H]2Oc3cc(OC(C)=O)cc(OC(C)=O)c3C(=O)[C@@H]2c2c(OC(C)=O)cc(OC(C)=O)c3c(=O)cc(-c4ccc(OC(C)=O)c(OC(C)=O)c4)oc23)cc1 | inhibition | 12.5 µg/mL | - | - | 0%
O=Nc1ccc([O-])cc1.[Na+] | MIC | - | H37Rv | - | >100 µg/mL
CCOC(=O)Nc1cc(NCC(=O)CN(C)c2ccccc2)c([N+](=O)[O-])c(NC(=O)OCC)n1 | inhibition | 12.5 µg/mL | H37Rv | - | 0%
CSC(=S)NN=C1CCCCC1 | MIC | - | RMP-R | - | 12.8 µg/mL
CO[C@H]1/C=C/O[C@@]2(C)Oc3c(C)c(O)c4c(O)c(c5c(c4c3C2=O)NC2(CCN(CC(C)C)CC2)N=5)=NC(=O)/C(C)=C\C=C\[C@H](C)[C@H](O)[C@@H](C)[C@@H](O)[C@@H](C)[C@H](OC(C)=O)[C@@H]1C | MBC | - | 2983 (rifampin-sensitive) | - | 0.05 µg/mL
OCCCCCNCCN(Cc1ccccc1)Cc1ccccc1 | MIC | - | - | - | 50 µM
CC(CNCC(c1ccccc1)c1ccccc1)N[C@@H]1C[C@@H]2C[C@H]([C@H]1C)C2(C)C | MIC | - | - | - | 50 µM
COc1ccc(CCNCCNCCc2ccc(F)cc2)cc1 | MIC | - | - | - | 12.5 µM
O=C1CC(c2cccc(Cl)c2)Oc2ccccc21 | inhibition | 12.5 µg/mL | - | - | 0%
CCN(CC)CCOC(=O)c1ccccc1Oc1ccc(N)cc1 | MIC | - | H37Rv | - | >100 µg/mL
C[C@H]1C[C@H](N)CN1c1cc2c(cc1F)c(=O)c(C(=O)O)cn2-c1ccc(F)cc1F | MIC | - | H37Rv | - | 2 µg/mL
O=C1c2cccc(NCCc3ccccc3)c2C(=O)c2cccc(NCCc3ccccc3)c21 | MIC | - | H37Rv | - | >100 µg/mL
NC1CCN(c2nc3c(cc2F)c(=O)c(C(=O)O)cn3-c2ccc(F)cc2F)C1 | MIC | - | ATCC35838 | - | >8 µg/mL
CCC1(C)NN=C2C(=CC=C3NNC(C)(CC)N32)n2cccc21.Cl.Cl | inhibition | 12.5 µg/mL | H37Rv | BACTEC | 0%
Fc1cccc(CNCCNCCCCc2ccccc2)c1 | MIC | - | - | - | 25 µM
NC1CCN(c2c(F)cc3c(=O)c(C(=O)O)cn(C4CC4)c3c2Cl)C1 | MBC | - | H37Rv | - | 0.125 µg/mL
CCCCC(CC)CN1CN(CC(CC)CCCC)CC(C)(NCCN[C@H]2C[C@H]3C[C@@H]([C@@H]2C)C3(C)C)C1 | MIC | - | - | - | 50 µM
c1ccc(CCCNCCNCC23CC4CC(CC(C4)C2)C3)cc1 | MIC | - | - | - | 25 µM
CNC(=O)NC1ON=C(c2ccccc2)C1C(=O)NC | MIC bound | - | H37Rv | BACTEC | >12.5 µg/mL
NC(=O)Nc1ccc(NC(N)=O)cc1 | MIC | - | H37Rv | - | >100 µg/mL
NC[C@H]1O[C@H](O[C@H]2[C@H](O)[C@@H](O[C@H]3O[C@H](CO)[C@@H](O)[C@H](N)[C@H]3O)[C@H](N)C[C@@H]2N)[C@H](O)[C@@H](O)[C@@H]1O | MIC | - | TN2229 (N2) | - | >256 µg/mL
O=C(CCCC(=O)NNC(=O)Nc1ccccc1Cl)NNC(=O)Nc1ccccc1Cl | inhibition | 12.5 µg/mL | H37Rv | BACTEC | 16%
CC(NCCNCCc1ccccc1Cl)C12CC3CC(CC(C3)C1)C2 | MIC | - | - | - | 50 µM
S=C(S)Nc1ccc(Cl)cc1 | MIC | - | TAC-R | - | 12.5 µg/mL
O=C(O)C1CSC(CCCOc2ccccc2)C1(O)C(=O)O | MIC | - | H37Rv | - | >100 µg/mL
CCCCC(CC)CN1CN(CC(CC)CCCC)CC(C)(NCCNN2CCCC2)C1 | MIC | - | - | - | 50 µM
O=C(O)COc1ccc(Cl)cc1 | MIC | - | H37Rv | - | >100 µg/mL
CC(C)c1ccc2c(c1)CC[C@H]1[C@](C)(CNCCNCCCc3ccccc3)CCC[C@]21C | MIC | - | - | - | 25 µM
O=C1NC(=O)c2cnccc21 | MIC | - | H37Rv | - | >100 µg/mL
CCOC(=O)Nc1cc2c(ncn2/N=C/c2ccc(OC)cc2)c(N)n1 | EC50 | - | H37Rv | - | >12.5 µg/mL
Clc1ccccc1CCNCCNC1CCCCCCC1 | MIC | - | - | - | 50 µM
NCC[C@H](O)C(=O)N[C@@H]1C[C@H](N)[C@@H](O[C@H]2O[C@H](CN)[C@@H](O)[C@H](O)[C@H]2O)[C@H](O)[C@H]1O[C@H]1O[C@H](CO)[C@@H](O)[C@H](N)[C@H]1O | MIC | - | MDR22 | broth dilution / resazurin | 2 µg/mL
CC(CNCCC(c1ccccc1)c1ccccc1)NC1CCCC(C)C1C | MIC | - | - | - | 50 µM
CC1(C)[C@H]2CC[C@@H](CNCCNCCCCc3ccccc3)[C@@H]1C2 | MIC | - | - | - | 50 µM
CCOC(=O)C1=NN(c2ccccc2)C(C(=O)OC)[C@H]1C(=O)OC | MIC bound | - | H37Rv | - | >6.25 µg/mL
CC[C@H]1OC(=O)[C@H](C)[C@@H](O[C@H]2C[C@@](C)(OC)[C@@H](O)[C@H](C)O2)[C@H](C)[C@@H](O[C@@H]2O[C@H](C)C[C@H](N(C)C)[C@H]2O)[C@](C)(OC)C[C@@H](C)C(=O)[C@H](C)[C@@H](O)[C@]1(C)O | MIC50 | - | DRUG-SUS | - | >8 µg/mL
O=C1c2cccnc2C(=O)N1CCO | MIC | - | H37Rv | BACTEC | ≥12.8 µg/mL
Cc1cc(Cl)cc2c1C(=Nc1ccccc1)CS2 | MIC | - | H37Rv | - | >100 µg/mL
COc1ccc(C(=O)N=C2N(c3ccccc3)C(=Nc3ccccc3)C(=Nc3ccccc3)N2c2ccccc2)cc1 | inhibition | 12.5 µg/mL | H37Rv | BACTEC | 88%
CCOC(=O)Nc1cc(NCC(=O)c2ccc([N+](=O)[O-])cc2)c([N+](=O)[O-])c(N)n1 | EC50 | - | H37Rv | - | >12.5 µg/mL
c1ccc(CCCNCCNC(c2ccccc2)c2ccccc2)cc1 | MIC | - | - | - | 50 µM
O=C(C[n+]1ccccc1)NNC(=O)/C(=C/c1ccc2c(c1)OCO2)NC(=O)c1ccccc1.[Cl-] | MIC bound | - | H37Rv | BACTEC | >12.5 µg/mL
CCOC(=O)C1CSC(C)C1=O | MIC | - | H37Rv | - | >100 µg/mL
COc1ccc(/C=C/C(=O)c2cc(I)ccc2O)cc1 | EC50 | - | H37Rv | - | >12.5 µg/mL
O=c1[nH]c2ccc(CC(=S)N3CCOCC3)cc2s1 | inhibition | 6.25 µg/mL | H37Rv | resazurin | 64%
CO[C@H]1/C=C/O[C@@]2(C)Oc3c(C)c(O)c4c(=O)c(c5oc6cc(N7CCN(CC(C)C)CC7)cc(=O)c6nc5c4c3=C2O)NC(=O)/C(C)=C\C=C\[C@H](C)[C@H](O)[C@@H](C)[C@@H](O)[C@@H](C)[C@H](OC(C)=O)[C@@H]1C | MIC | - | 29 (rifampin-resistant) | - | 0.025 µg/mL
CN1CC(=O)N2CCCCC2C(c2ccccc2)C1 | MIC bound | - | H37Rv | BACTEC | >12.5 µg/mL
O=C(O)C(Br)(CCC1CCCCC1)C(=O)O | MIC | - | H37Rv | - | >100 µg/mL
CCOC(=O)Nc1cc2c(c(N)n1)N=C(c1ccccc1)C(c1ccccc1)O2 | EC50 | - | H37Rv | - | <12.5 µg/mL
CO[C@H]1/C=C/O[C@@]2(C)Oc3c(C)c(O)c4c(=O)c(c5oc6cc(N7CCN(CC(C)C)CC7)cc(=O)c6nc5c4c3=C2O)NC(=O)/C(C)=C\C=C\[C@H](C)[C@H](O)[C@@H](C)[C@@H](O)[C@@H](C)[C@H](OC(C)=O)[C@@H]1C | MIC | - | TN981 | - | 16 µg/mL
O=C(CC(=O)Nc1ccccc1)CC(=O)Nc1ccccc1 | MIC | - | H37Rv | - | 25 µg/mL
O=C1c2cccc([N+](=O)[O-])c2C(=O)c2c1oc1ccc3ccccc3c21 | inhibition | 12.5 µg/mL | H37Rv | BACTEC | 95%
Cc1cc(O)ccc1O | MIC | - | H37Rv | - | 100 µg/mL
C[n+]1c(-c2ccc(/C=N/NC(=O)c3ccc(C(=O)N/N=C/c4ccc(-c5cn6ccccc6[n+]5C)cc4)nc3)cc2)cn2ccccc21.Cc1ccc(S(=O)(=O)[O-])cc1.Cc1ccc(S(=O)(=O)[O-])cc1 | MIC bound | - | H37Rv | BACTEC | >12.5 µg/mL
CCCCCCCCCCCCCCN | MIC | - | H37Rv | - | >100 µg/mL
C1=C(CCNCCNCCCCc2ccccc2)CCCC1 | MIC | - | - | - | 12.5 µM
C[N+](C)(C)CC(=O)N/N=C(\Cc1nc2ccc(Cl)cc2[nH]c1=O)C1=Nc2cc(Cl)c(S(N)(=O)=O)cc2S(=O)(O)=N1.[Cl-] | inhibition | 12.5 µg/mL | H37Rv | BACTEC | 18%
O=[N+]([O-])c1c(Cl)ccc2cccnc12 | MIC | - | H37Rv | - | 100 µg/mL

6 of the rows above, restated:

SMILES	endpoint	tested at	strain or isolate	method	result
CCCCC(CC)CN1CN(CC(CC)CCCC)CC(C)(NCCNN2CCCC2)C1	MIC	-	-	-	50 µM
CC[C@H]1OC(=O)[C@H](C)[C@@H](O[C@H]2C[C@@](C)(OC)[C@@H](O)[C@H](C)O2)[C@H](C)[C@@H](O[C@@H]2O[C@H](C)C[C@H](N(C)C)[C@H]2O)[C@](C)(OC)C[C@@H](C)C(=O)[C@H](C)[C@@H](O)[C@]1(C)O	MIC50	-	DRUG-SUS	-	>8 µg/mL
CCOC(=O)C1=NN(c2ccccc2)C(C(=O)OC)[C@H]1C(=O)OC	MIC bound	-	H37Rv	-	>6.25 µg/mL
CO[C@H]1/C=C/O[C@@]2(C)Oc3c(C)c(O)c4c(=O)c(c5oc6cc(N7CCN(CC(C)C)CC7)cc(=O)c6nc5c4c3=C2O)NC(=O)/C(C)=C\C=C\[C@H](C)[C@H](O)[C@@H](C)[C@@H](O)[C@@H](C)[C@H](OC(C)=O)[C@@H]1C	MIC	-	29 (rifampin-resistant)	-	0.025 µg/mL
CC(C)c1ccc2c(c1)CC[C@H]1[C@](C)(CNCCNCCCc3ccccc3)CCC[C@]21C	MIC	-	-	-	25 µM
C[N+](C)(C)CC(=O)N/N=C(\Cc1nc2ccc(Cl)cc2[nH]c1=O)C1=Nc2cc(Cl)c(S(N)(=O)=O)cc2S(=O)(O)=N1.[Cl-]	inhibition	12.5 µg/mL	H37Rv	BACTEC	18%